Data: the supplement of paper PMC12637763
The other results are listed elsewhere or left out. Env chains of viruses from a treatment-interruption trial, translated from the printed DNA. IC50 / IC80 of two broadly neutralizing antibodies; lower = more sensitive virus; >50 µg/ml means not reached and <0.001 µg/ml is below the lowest dose. No active / inactive call.

B1: HIV-1 Env, rebound clone, antibody arm (protein)
chain: MRVRGMLRNWQHLEKWGLLFLGLLIICSAKENLWVTVYYGVPVWKEATTTLFCASDAKGYEKEAHNVWATHACVPTDPNPQEIGLENVTENFNMWKNDMVEQMHTDIISLWDESLKPCVKITPLCVTLNCTDYCTTNCSQANDSSILEERKALQNCSFNMTTVVRDKKQKVSALFYRLDLTPLNNNNSSTEYRLITCNTSTITQACPKVSWDPIPIHYCAPAGYAILKCRDKKFNGTGPCKNVSTVQCTHGIKPVVSTQLLLNGSLAEEDIVIRSANISDNTKAIIVSLNESVLINCTRPNNNTRKGIHLGPGQTLYAAGEIVGNIRQAHCSISGTQWNKTLERVRTKLSSLINKTIIFKPPVGGDLEVTMHSFTCRGEFFYCNTSGLFSESGNNSTSSNETIITLPCKIKQIINMWQGVGRAMYAPPIEGTITCNSNITGLLLTRDGGNNGTNDTFRPGGGDMRDNWRSELYKYKVVEIEPLGVAPTRARRQVVRRERRAVGIGAVFLGFLGAAGSTMGAASITLTVQARQLLSGIVQQQSNLLKAIEAQQHLLKLTVWGIKQLQARVLAVERYLKDQQLLGIWGCSGKLICTTNVPWNSSWSNRSYDEIWNNMTWIDWEREVGNYSQEIYRLIEQSQNQQEKNEQELLALDKWASLWNWFDITNWLWYIKIFIMIVGGLIGLRIVFTVLTIVNRVRKGYSPLSLQTLFPSPRGPDRPEGIGEEGGEQDRDRSVRLVNGFLSLVWDDLRSLCLFSYRQLRDFILIAARTVDRGLRRGWEALKYLWNLVKYWSQELKNSAISLFNSTAIVVAEGTDRIIEALQTGIRAVLHIPRRIRQGLERALL
B2: HIV-1 Env, rebound clone, antibody arm (protein)
chain: MRVRGMLRNWQHLEKWGLLFLGLLIICSAKENLWVTVYYGVPVWKEATTTLFCASDAKGYEKEAHNVWATHACVPTDPNPQEIGLENVTENFNMWKNDMVEQMHTDIISLWDESLKPCVKITPLCVTLNCTDYCTTNCSEANDSSILEERKALQNCSFNMTTVVRDKKQKVSALFYRLDLTPLNNNNSSMEYRLITCNTSTITQACPKVSWDPIPIHYCAPAGYAILKCRDKKFNGTGPCKNVSTVQCTHGIKPVVSTQLLLNGSLAEEDIVIRSANISDNTKAIIVSLNESVLINCTRPNNNTRKGIHLGPGQTLYAAGEIVGNIRQAHCNIRGTQWNKTLERVRTKLSSLINKTIIFKPPVGGDLEVTMHSFTCRGEFFYCNTSGLFSESGNNSTSSNETIITLPCKIKQIINMWQGVGRAMYAPPVEGTITCNSNITGLLLTRDGGNNGTNDTFRPGGGDMRDNWRSELYKYKVVEIEPLGVAPTRARRQVVRRERRAVGIGAVFLGFLGAAGSTMGAASITLTVQARQLLSGIVQQQSNLLKAIEAQQHLLKLTVWGIKQLQARVLAVERYLKDQQLLGIWGCSGKLICTTNVPWNSSWSNRSYDEIWNNMTWIDWEREVGNYSQEIYRLIEQSQNQQEKNEQELLALDKWASLWNWFDITNWLWYIKIFIMIVGGLIGLRIVFTVLTIVNRVRKGYSPLSLQTLFPSPRGPDRPEGIGEEGGEQDRDRSVRLVNGFLSLVWDDLRSLCLFSYRQLRDFILIAARTVDRGLRRGWEALKYLWNLVKYWSQELKNSAISLFNSTAIVVAEGTDRIIEALQTGIRAVLHIPRRIRQGLERALL
B3: HIV-1 Env, rebound clone, antibody arm (protein)
chain: MRVRGMLRNWQHLEKWGLLFLGLLIICSAKENLWVTVYYGVPVWKEATTTLFCASDAKGYEKEAHNVWATHACVPTDPNPQEIGLENVTENFNMWKNDMVEQMHTDIISLWDESLKPCVKITPLCVTLNCTDYCTTNCSEANDSSILEERKALQNCSFNMTTVVRDKKQKVSALFYRLDLTPLNNNNSSTEYRLITCNTSTITQACPKVSWDPIPIHYCAPAGYAILKCRDKKFNGTGPCKNVSTVQCTHGIKPVVSTQLLLNGSLAEEDIVIRSANISDNTKAIIVSLNESVLINCTRPNNNTRKGIHLGPGQTLYAAGEIVGNIRQAHCSISGTQWNKTLERVRTKLSSLINKTIIFKPPVGGDLEVTMHSFTCRGEFFYCNTSGLFSESGNNSTSSNETIITLPCKIKQIINMWQGVGRAMYAPPIEGTITCNSNITGLLLTRDGGNNGTNDTFRPGGGDMRDNWRSELYKYKVVEIEPLGVAPTRARRQVVRRERRAVGIGAVFLGFLGAAGSTMGAASITLTVQARQLLSGIVQQQSNLLKAIEAQQHLLKLTVWGIKQLQARVLAVERYLKDQQLLGIWGCSGKLICTTNVPWNSSWSNRSYDEIWNNMTWIDWEREVGNYSQEIYRLIEQSQNQQEKNEQELLALDKWASLWNWFDITNWLWYIKIFIMIVGGLIGLRIVFTVLTIVNRVRKGYSPLSLQTLFPSPRGPDRPEGIGEEGGEQDRDRSVRLVNGFLSLVWDDLRSLCLFSYRQLRDFILIAARTVDRGLRRGWEALKYLWNLVKYWSQELKNSAISLFNSTAIVVAEGTDRIIEALQTGIRAVLHIPRRIRQGLERALL
B4: HIV-1 Env, rebound clone, antibody arm (protein)
chain: MRVRGMLRNWQHLEKWGLLFLGLLIICSAKENLWVTVYYGVPVWKEATTTLFCASDAKGYEKEAHNVWATHACVPTDPNPQEIGLENVTENFNMWKNDMVEQMHTDIISLWDESLKPCVKITPLCVTLNCTDYCTTNCSKANDSSNLEERKALQNCSFNMTTVVRDKKQKVSALFYRLDLTPLNNNNSSMEYRLITCNTSTITQACPKVSWDPIPIHYCAPAGYAILKCRDKKFNGTGPCKNVSTVQCTHGIKPVVSTQLLLNGSLAEEDIVIRSANISDNTKAIIVSLNESVLINCTRPNNNTRKGIHLGPGQTLYAAGEIVGNIRQAHCNIRGTQWNKTLERVRTKLSSLINKTIIFKPPVGGDLEVTMHSFTCRGEFFYCNTSGLFSESGNNSTSSNETIITLPCKIKQIINMWQGVGRAMYAPPIEGTITCNSNITGLLLTRDGGNNGTNDTFRPGGGDMRDNWRSELYKYKVVEIEPIGVAPTRARRQVVRRERRAVGIGAVFLGFLGAAGSTMGAASITLTVQARQLLSGIVQQQSNLLKAIEAQQHLLKLTVWGIKQLQARVLAVERYLKDQQLLGIWGCSGKLICTTNVPWNSSWSNRSYDEIWNNMTWIDWEREVGNYSQEIYRLIEQSQNQQEKNEQELLALDKWASLWNWFDITNWLWYIKIFIMIVGGLIGLRIVFTVLTIVNRVRKGYSPLSLQTLFPSPRGPDRPEGIGEEGGEQDRDRSVRLVNGFLSLVWDDLRSLCLFSYRQLRDFILIAARTVDRGLRRGWEALKYLWNLVKYWSQELKNSAISLFNSTAIVVAEGTDRIIEALQTGIRAVLHIPRRIRQGLERALL
B5: HIV-1 Env, rebound clone, antibody arm (protein)
chain: MKVMEIRKHSWRWGILFLGMLMICSAEDLWVTIYYGVPVWKEANTTLFCASDAKAYSTEKHNVWATHACVPTDPNPQEQNLVNVTEDFNMWKNNMVEQMHEDIISLWDQSLKPCVKLTPLCVTLECTDLRNATNTTATNTNNSLRDEGDMKNCSFNITTDRRDKVKKEYATFYNLDIVQIKEESNGNDSKIYRLVSCNTSVITQACPKISFEPIPIHYCAPAGFAILKCNDTDFNGIGTCRNVSIVQCTHGIRPVVSTQLLLNGSLAEKEVVIKSANFTDNTKTIIVQLKDPVEINCTRPNNNTRKGIHMGPGKAFYTVGQVIGDIRKAYCNIRWKKWNNTLGQIAKKLHDQYEMHNITFNRSSGGDPEIVTHSFNCGGEFFYCDTSGLFNSTWINGNWTNGTRIDTEGLNNGTFTLPCRIKQIINTWQEVGKAMYAPPIAGIIKCSTNITGLLLTRDGVNNSGHETFRPGGGDMRDNWRSELYKYKVVKLEPIGLAPTKAKRRVVQREKRAIGGIGALFLGFLGAAGSTMGAASLTLTVQARQLLSGIVQQQNNLLRAIEAQQHLLQLTVWGIKQLQARLLAVERFLHDQQLLGIWGCSGRLICTTAVPWNTSWSNKTLDRIWGNMTWMQWEREIENYTGLIYNLIEESQNQQENNEKELLALDKWANLWNWFDITKWLWYIKIFIMIVGGLIGVRIIFAVLSIVNRVRQGYSPLSFQTRLPTQRGPDRPEGIEEEGGERDRETSGSLATRLLAIIWIDLRSLCLFSYHRLRDLLLIAARIVELLGRRGWEILRYWWSLLQYWTQELKNSAVSLLNTTAVVVAEGTDRIIEAAQRAFRAFLNIPRRIRQGLERALL
B6: HIV-1 Env, rebound clone, antibody arm (protein)
chain: MRVKGIRRNYQHLWKWGIMLLGMLMICSAVDNLWVTVYYGVPVWKEATTTLFCASDAKSYDTEAHNVWATHACVPTDPNPQEVKLENVTENFNMWKNNMVEQMHEDIISLWDQSLKPCVRLTPLCVTLNCNDVNSTRTVNTTMNSTTMSSEVDKGEIKNCSFNITTGMGIKNEKEYALFYKLDVVQIDNTSYRLISCNTSVVTQACPKISFEPIPIHYCAPAGFAILKCNDKKFNGTGPCKNVSTVQCTHGIRPVISTQLLLNGSLAEEEVIIRSENITDNAKTIIVQLNETVKINCTRPHNNTRKGIHMGPGKAFFTTGNVIGDIRQAHCNISGAEWKNTLKMVAKKLGDQFKNKTITFSASSGGDPEIEKHTFNCGGEFFYCDTTKLFNSTWNETTWNENRENENDTDITIQCRIKQIINMWQEVGKAIYAPPIEGHIRCSSNITGLLLTRDGGINNNQSNTTEVFRPQGGDMKNNWRSELYKYKVVKIEPLGVAPTKAKRRVVQREKRAIVGLGAVFVGFLGAAGSTMGAASLTLTVQARQLLSGIVQQQSNLLRAIEAQQHLLQLTVWGIKQLQARILAVERYLTDQQLLGIWGCSGKLICNTAVPWNASWSNKSLDTIWENMTWMEWDREISNYTSLIYSLIEESQNQQEKNEQELLALDKWANLWSWFNISNWLWYIRIFIMIVGGLIGLRIVFAVLSIVNRVRQGYSPLSFQTHLPAQRGPDRPAGIGEEGGERDKDTSTPLVAGFLAILWVDLRSLCLFSYHRLRDLLLIVARIVELLGRRGWEILKYWWNLLQYWSQELKNSAVSLLNTTAIAVAEGTDRVIEAVQRACRAILHIPRRIRQGAERILV

target: antibody 10-1074; test: neutralization IC50; higher = virus less sensitive to the antibody
Procedure: (§1)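 Pseudovirus bearing the Env chain mixed with antibody, from 50 µg/ml in fivefold dilutions, on TZM-bl reporter cells, in duplicate.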

Row | Binder | neutralization IC50 [µg/mL]
1 | B1 | > 50
2 | B2 | > 50
3 | B3 | > 50
4 | B4 | > 50
5 | B5 | > 50
6 | B6 | 0.234

target: antibody 3BNC117; test: as above
Procedure: as §1

Row | Binder | neutralization IC50 [µg/mL]
7 | B1 | 0.042
8 | B2 | 0.064
9 | B3 | 0.067
10 | B4 | 0.048
11 | B5 | 0.129
12 | B6 | 0.578

target: antibody 10-1074; test: neutralization IC80; higher = virus less sensitive to the antibody
Procedure: as §1

Row | Binder | neutralization IC80 [µg/mL]
13 | B1 | > 50
14 | B2 | > 50
15 | B3 | > 50
16 | B4 | > 50
17 | B5 | > 50
18 | B6 | 0.487

target: antibody 3BNC117; test: as above
Procedure: as §1

Row | Binder | neutralization IC80 [µg/mL]
19 | B1 | 0.174
20 | B2 | 0.179
21 | B3 | 0.19
22 | B4 | 0.141
23 | B5 | 0.711
24 | B6 | 0.066
